Pooled drug test results. Numbers come from NIAID ChemDB, via PubChem.

Common to all: growth or infection tests; agent: Herpes simplex virus 2; read by: plaque count; read-out: EC50

a–b is a range or a potency band. An empty or dashed field is not shown. Neighbouring rows are from separate reports. ECn is the concentration giving n% inhibition of infection, replication or growth.

| structure | cells | strain or isolate | result |
|---|---|---|---|
| CCc1cn([C@H]2C[C@H](O)[C@@H](CO)O2)c(=O)[nH]c1=O | VERO | G-FMAU-C1 | 773 µM |
| CC(C)=CCc1ccc(O)c(=O)cc1C(C)C | HFF | Clinical isolate | 1.23 µM |
| Cn1cc(C(=O)NCc2ccc(Cl)cc2)c(=O)c2cc(CN3CCOCC3)ccc21 | HFF | AG-3 (ACV-resistant) | 3 µM |
| Nc1nc2c(ncn2COC(CO)CO)c(=O)[nH]1 | VERO | Lovelace MS | 0.4 µM |
| O=C(NCc1ccc(Cl)cc1)c1cn2c3c(cc(CN4CCOCC4)cc3c1=O)OC(c1cccnc1)C2 | HFF | L6089158 ACV resistant | 7.4 µM |
| Fc1ccccc1-c1cc2ccccn2c1 | VERO | 186 | 50 µM |
| Nc1nc2c(ncn2CC[C@@H](O)CO)c(=O)[nH]1 | VERO | 91075 | 4 µM |
| Nc1ncnc2c1ncn2[C@@H]1C[C@H](CO)[C@@H](O)[C@@H]1O | VERO | G-FMAU-C1 | 73 µM |
| Nc1ccn([C@@H]2O[C@H](CO)[C@@H](O)[C@@H]2O)c(=O)n1 | VERO | MS-M1 | 0.1 µM |
| CC(C)c1ccc(O)c(O)c(=O)c1 | VERO | Clinical isolate | 1.69 µM |
| Nc1nc2c(ncn2COCCO)c(=O)[nH]1 | HFF |  | 3.5 µM |
| Cc1cn([C@@H]2O[C@H](CO)[C@@H](O)[C@@H]2F)c(=O)[nH]c1=O | VERO | Lovelace MS | 0.5 µM |
| O=C(O)P(=O)(O)O | VERO | G-FAC-C1 | 18 µM |
| Nc1nc2c(ncn2C[C@]2(CO)C[C@H]2CO)c(=O)[nH]1 | MRC-5 | UW-268 | 0.18 µg/mL |
| Nc1ccn(C[C@@H](CO)OCP(=O)(O)O)c(=O)n1 | MRC-5 | G | 18–25 µg/mL |
| Cn1cc(C(=O)NCc2ccc(Cl)cc2)c(=O)c2cc(CN3CCOCC3)ccc21 |  | 3 isolates | 3.4 µM |
| COC(=O)Nc1nc2c3c(ccc2[nH]1)[C@@]1(C)CCC[C@@](C)(C(=O)OC)C1CC3 | E6SM |  | >4 µg/mL |
| Nc1nc2c(ncn2C/C=C\CO)c(=O)[nH]1 | BHK | 91075 | 26 µM |
| C=C(C)[C@@H]1CCc2c(O)c(O)c(=O)cc(C)c2C1 | VERO | Clinical isolate | 0.58 µM |
| Nc1ccn([C@H]2O[C@@H](CO)[C@H](O)[C@H]2F)c(=O)n1 | VERO | G | 0.07 µM |
| Nc1nc2c(ncn2CCC(O)CO)c(=O)[nH]1 | VERO | B4327 | 18 µM |
| CCOc1ccc(-c2c3cc(O)c(=O)cc-3oc3cc(O)c(O)cc23)cc1 | HFF | Clinical isolate | 0.52 µM |
| FC(F)(F)c1cc(Cl)c2cc(-c3ccccc3)cn2c1 | VERO | 186 | 50–100 µM |
| COC(=O)[C@]1(C)CCC[C@]2(C)c3ccc4nc(-c5ccccc5)c(-c5ccccc5)nc4c3CCC12 | E6SM |  | >4 µg/mL |
| CCCCC(=O)OC[C@H]1O[C@@H](n2cnc3c(N)ncnc32)[C@@H](O)[C@@H]1O | MEF | Clinical isolate HEETER | 20 µM |
| Cc1cn([C@@H]2O[C@H](CO)[C@@H](O)[C@@H]2F)c(=O)[nH]c1=O | VERO | G-FMAU-C1 | 8.5 µM |
| Nc1ncnc2c1ncn2C[C@@H](CO)OCP(=O)(O)O | WI-38 | 186 (TK-) | 3 µM |
| COC(=O)[C@]1(C)CCC[C@]2(C)c3cc(Br)c4nc(C(F)(F)F)[nH]c4c3CCC12 | E6SM |  | >4 µg/mL |
| Nc1ccn(C[C@@H](CO)OCP(=O)(O)O)c(=O)n1 | MRC-5 | 8713 (TK-) | 2.2 µM |
| CC(=O)OC[C@H]1[C@H](COC(C)=O)[C@@H](CO)O[C@H]1n1cnc2c(N)ncnc21 | MEF | E-196 | 201 µM |
| OC[C@H]1O[C@@H](n2c(Br)nc3cc(Cl)c(Cl)cc32)[C@H](O)[C@@H]1O | HFF |  | >251 µM |
| COC(=O)[C@]1(C)CCC[C@]2(C)c3cc4cc[nH]c4cc3CCC12 | E6SM |  | >4 µg/mL |
| Nc1ncnc2c1ncn2[C@@H]1O[C@H](CO)[C@@H](O)[C@@H]1O | VERO | MS | 10.6 µM |
| COC(=O)c1cccn2cc(-c3ccccc3)cc12 | VERO | 186 | >100 µM |
| Cc1cn([C@@H]2O[C@H](CO)[C@H]2CO)c(=O)[nH]c1=O | HFF | 11680 (TK altered) | 47 µg/mL |
| Cn1cc(C(=O)NCc2ccc(Cl)cc2)c(=O)c2cc(/C=C\CO)cc(F)c21 | VERO | 186-M1 | >20 µM |

3 of the rows above, restated:

structure | cells | strain or isolate | result
O=C(O)P(=O)(O)O | VERO | G-FAC-C1 | 18 µM
CCc1cn([C@H]2C[C@H](O)[C@@H](CO)O2)c(=O)[nH]c1=O | VERO | G-FMAU-C1 | 773 µM
Fc1ccccc1-c1cc2ccccn2c1 | VERO | 186 | 50 µM